Results published in ChEMBL document CHEMBL1135511, “Structure activity of 3-aryl-1,3-diketo-containing compounds as HIV-1 integrase inhibitors” (J Med Chem, 2002).

What was measured:
Homo sapiens [1] = species: Homo sapiens; assay: Antiviral activity against envelope deficient HIV-1 in a single cycle replication assay (experiment 2); format: functional
Homo sapiens [2] = species: Homo sapiens; assay: Antiviral activity against envelope deficient HIV-1 in a single cycle replication assay (experiment 1); format: functional

Substance “2-Hydroxy-4-oxo-4-ferrosinyl-but-2-enoic acid” has a Control (Homo sapiens [1]) of 69% and a Control (Homo sapiens [2]) of 36%.
